Source: US9487749B2 (priority 2009, dated 2016)

Test system: pasture grass mix
Test: Effect of MSM on grass growth and nutrient value
Assay type: in vivo
Details: MSM 1:500, Dry basis

CS(C)(=O)=O [MSM, Methylsulfonylmethane]
Sulfur (AOAC 923.01): 0.25%
Crude Protein (AOAC 2001.11): 24.36%
Neutral Detergent Fiber (AOAC 2002.04): 35.23%
Non Structural Carbo (Calculation): 25.66%

No dose or concentration is given here for some results.
